{"source": "patent US5221665A", "about": "“N-substituted amides” (Boehringer Ingelheim Pharmaceuticals, Inc., priority 1991, dated 1993)", "key": {"Polio 3C - Proteinase": {"biological_target": "Polio 3C - Proteinase (Poliovirus type 1, UniProt P03300)", "assay": "Selectivity assay: Polio 3C - Proteinase"}, "[1]": {"biological_target": "Recombitant HIV Proteinase (Human immunodeficiency virus type 1 group M subtype B, UniProt P04585)"}}, "data": [{"smiles": "CC(C)C(NC(=O)CN(C(=O)[C@@H](NC(=O)c1ccc(C(=O)NS(=O)(=O)c2ccc(Cl)cc2)cc1)C(C)C)C1Cc2ccccc2C1)C(=O)C(F)(F)F", "note": "(some centres unmarked)", "values": [{"measurement": "IC50, Polio 3C - Proteinase", "setting": "Polio 3C - Proteinase", "result": "> 63", "unit": "µg/mL"}, {"measurement": "IC50", "setting": "[1]", "result": 125, "unit": "µg/mL"}]}]}
